Mutational interference map of HIV-1 RNA dimerization

RNA: 5' end of the HIV-1 NL4-3 genome, made in vitro. Positions 1-437 read:
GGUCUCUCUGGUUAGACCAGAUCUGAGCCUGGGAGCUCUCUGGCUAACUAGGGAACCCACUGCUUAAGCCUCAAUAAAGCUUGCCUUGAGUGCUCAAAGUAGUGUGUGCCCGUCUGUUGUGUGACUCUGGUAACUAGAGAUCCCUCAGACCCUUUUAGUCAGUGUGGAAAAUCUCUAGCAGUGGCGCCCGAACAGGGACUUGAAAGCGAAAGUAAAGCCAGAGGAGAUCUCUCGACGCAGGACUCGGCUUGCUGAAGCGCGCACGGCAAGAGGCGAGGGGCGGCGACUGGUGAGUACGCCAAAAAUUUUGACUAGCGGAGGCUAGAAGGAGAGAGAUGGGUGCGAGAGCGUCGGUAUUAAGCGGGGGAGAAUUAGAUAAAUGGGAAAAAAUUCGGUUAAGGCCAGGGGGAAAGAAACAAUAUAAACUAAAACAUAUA

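Randomly mutated transcripts starting with one, two or three G (1G, 2G, 3G), capped or uncapped, were folded for 30 min at 37 °C. High salt was 300 mM KCl and 5 mM MgCl2, low salt 40 mM KCl and 0.1 mM MgCl2; monomer and dimer were parted on a native gel. Kdimer compares mutation frequencies in monomer and dimer, corrected for sequencing errors.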

Scale: median log2 Kdimer over the changes at a position; positive = changes inhibit dimerization, negative = changes enhance it.
One numbering serves 1G, 2G and 3G.
A position is written with its base.

For G68 the result was 2G capped low-salt 0.02; 2G uncapped low-salt 0.07. C69 read 2G capped low-salt -0.03; 2G uncapped low-salt 0.09. With C70 the assay gave 2G capped low-salt 0.22; 2G uncapped low-salt 0.21. U71 read 2G capped low-salt 0.00; 2G uncapped low-salt 0.02. For C72 the result was 2G capped low-salt 0.09; 2G uncapped low-salt 0.13. For A73 the result was 2G capped low-salt -0.01; 2G uncapped low-salt 0.11.

For A74 the result was 2G capped low-salt 0.13; 2G uncapped low-salt 0.14. With U75 the assay gave 2G capped low-salt -0.15; 2G uncapped low-salt 0.01. A76 read 2G capped low-salt 0.04; 2G uncapped low-salt 0.18. A77 read 2G capped low-salt 0.07; 2G uncapped low-salt 0.04. A78 gave 2G capped low-salt 0.03; 2G uncapped low-salt 0.02. G79 gave 2G capped low-salt 0.21; 2G uncapped low-salt 0.36.

C80 gave 2G capped low-salt 0.06; 2G uncapped low-salt -0.08. For U81 the result was 2G capped low-salt 0.27; 2G uncapped low-salt 0.38. For U82 the result was 2G capped low-salt 0.26; 2G uncapped low-salt 0.07. For G83 the result was 2G capped low-salt -0.08; 2G uncapped low-salt -0.28. C84 gave 2G capped low-salt -0.29; 2G uncapped low-salt -0.48. C85 read 2G capped low-salt -0.45; 2G uncapped low-salt -0.50.

U86 gave 2G capped low-salt 0.05; 2G uncapped low-salt 0.08. U87 read 2G capped low-salt 0.15; 2G uncapped low-salt 0.29. G88 gave 2G capped low-salt -0.06; 2G uncapped low-salt -0.09. With A89 the assay gave 2G capped low-salt 0.38; 2G uncapped low-salt 0.39. For G90 the result was 2G capped low-salt -0.34; 2G uncapped low-salt -0.36. U91 gave 2G capped low-salt -0.22; 2G uncapped low-salt -0.24.

With G92 the assay gave 2G capped low-salt 0.55; 2G uncapped low-salt 0.64. For C93 the result was 2G capped low-salt -0.10; 2G uncapped low-salt -0.16. U94 read 2G capped low-salt 0.41; 2G uncapped low-salt 0.40. C95 read 2G capped low-salt -0.19; 2G uncapped low-salt 0.23. A96 read 2G capped low-salt -0.18; 2G uncapped low-salt 0.10. A97 gave 2G capped low-salt 0.17; 2G uncapped low-salt 0.29.

A98 gave 2G capped low-salt -0.05; 2G uncapped low-salt 0.14. G99 read 2G capped low-salt -0.03; 2G uncapped low-salt 0.01. For U100 the result was 2G capped low-salt 0.11; 2G uncapped low-salt 0.13. For A101 the result was 2G capped low-salt 0.35; 2G uncapped low-salt 0.28. With G102 the assay gave 2G capped low-salt -0.22; 2G uncapped low-salt -0.09. U103 read 2G capped low-salt 0.24; 2G uncapped low-salt 0.49.

G104 read 2G capped low-salt 0.71; 2G uncapped low-salt 0.06. For U105 the result was 2G capped low-salt 0.12; 2G uncapped low-salt 0.19. G106 read 2G capped low-salt 0.10; 2G uncapped low-salt 0.21. U107 read 2G capped low-salt 0.49; 2G uncapped low-salt 0.66. With G108 the assay gave 2G capped low-salt -0.56; 2G uncapped low-salt -0.23. For C109 the result was 2G capped low-salt 0.39; 2G uncapped low-salt 0.77.

For C110 the result was 2G capped low-salt 0.46; 2G uncapped low-salt 0.72. C111 read 2G capped low-salt 0.40; 2G uncapped low-salt 0.81. G112 gave 2G capped low-salt -0.12; 2G uncapped low-salt 0.18. With U113 the assay gave 2G capped low-salt 0.11; 2G uncapped low-salt 0.30. C114 gave 2G capped low-salt 0.14; 2G uncapped low-salt 0.29. For U115 the result was 2G capped low-salt 0.34; 2G uncapped low-salt 0.54.

G116 read 2G capped low-salt -0.28; 2G uncapped low-salt -0.33.

The first 4 entries again:

{"position": "G68", "2G capped low-salt": 0.02, "2G uncapped low-salt": 0.07}
{"position": "C69", "2G capped low-salt": -0.03, "2G uncapped low-salt": 0.09}
{"position": "C70", "2G capped low-salt": 0.22, "2G uncapped low-salt": 0.21}
{"position": "U71", "2G capped low-salt": 0.00, "2G uncapped low-salt": 0.02}

Reference: Ye et al. 2022, doi:10.1038/s41594-022-00746-2.